Anti-infective test results gathered from many reports (values: NIAID ChemDB through PubChem).

Common to all: tests on isolated targets

Inhibition is in % at the dose shown (toxicity tests: loss of growth or viability). An empty or dashed field is not shown. Conditions beyond the fields shown may differ between rows. ICn: concentration for n% inhibition. Two numbers with a dash give a range or band.

| SMILES | dose | protein | species | endpoint | strain | value |
|---|---|---|---|---|---|---|
| O=C(O)C(O)P(=O)(O)O | - | DNA polymerase | Herpes simplex virus 2 | IC50 | - | 3 µM |
| CC(C)C(=O)NC[C@H]1O[C@@H](n2cc(I)c(=O)[nH]c2=O)C[C@@H]1O | - | Thymidine kinase | Herpes simplex virus 1 | IC50 | - | 0.19 µM |
| Nc1ncnc2c1ccn2[C@@H]1O[C@H](COP(=O)(O)OP(=O)(O)OP(=O)(O)O)[C@@H](O)[C@@H]1O | - | DNA polymerase | Herpes simplex virus 1 | Ki | - | 17 µM |
| CCOC(=O)NC[C@H]1O[C@@H](n2cc(I)c(=O)[nH]c2=O)C[C@@H]1O | - | Thymidine kinase | Herpes simplex virus 1 | IC50 | - | 0.29 µM |
| O=C(OCc1cccnc1)c1cccc(NC(=O)c2ccc(Cl)cc2O)c1 | - | Primase | Herpes simplex virus | IC50 | - | 1.1 µM |
| COc1ccc(OC)c2ccccc12 | - | Protease | Herpes simplex virus 1 | IC50 | - | >100 µM |
| CC(Cl)(C(=O)O)P(=O)(O)O | 100 µM | DNA polymerase | Herpes simplex virus 2 | inhibition | - | 0% |
| O=C(O)CP(=O)(O)O | - | DNA polymerase | Herpes simplex virus 2 | IC50 | - | 0.7 µM |
| Cc1nc(-c2ccc(NC(=O)CNCc3ccccc3)cc2)cs1 | - | Primase | Herpes simplex virus 1 | IC50 | - | 1–100 µM |
| CC(=O)NC[C@H]1O[C@@H](n2cc(C)c(=O)[nH]c2=O)C[C@@H]1O | - | Thymidine kinase | Herpes simplex virus 1 | IC50 | - | 2.9 µM |
| Oc1cccc2c(O)cccc12 | - | Protease | Herpes simplex virus 1 | IC50 | - | >100 µM |
| CCCCCCCCCC(C(=O)O)P(=O)(O)O | - | DNA polymerase | Herpes simplex virus 2 | IC50 | - | 5 µM |
| CC#Cc1cn([C@@H]2O[C@H](CO)[C@@H](O)[C@@H]2O)c(=O)[nH]c1=O | - | DNA polymerase | Herpes simplex virus 2 | IC50 | SC16 | 0.11 µM |
| CC(=O)NC[C@H]1O[C@@H](n2cc(I)c(=O)[nH]c2=O)C[C@@H]1OC(C)=O | - | Thymidine kinase | Herpes simplex virus 1 | IC50 | - | 0.91 µM |
| Oc1cc2ccccc2cc1O | - | Protease | Herpes simplex virus 1 | IC50 | - | >100 µM |
| O=C(O)C(F)P(=O)(O)O | - | DNA polymerase | Herpes simplex virus 1 | IC50 | - | 2.5 µM |
| CC(=O)NC[C@H]1O[C@@H](n2ccc(=O)[nH]c2=O)C[C@@H]1O | - | Thymidine kinase | Herpes simplex virus 1 | IC50 | - | >5 µM |
| O=C(O)C(F)(Cl)P(=O)(O)O | - | DNA polymerase | Herpes simplex virus 1 | IC50 | - | >100 µM |
| CC(C)C(=O)NC[C@H]1O[C@@H](n2cc(I)c(=O)[nH]c2=O)C[C@@H]1OC(=O)C(C)C | - | Thymidine kinase | Herpes simplex virus 1 | IC50 | - | 0.36 µM |

The last 2 rows once more:

SMILES	dose	protein	species	endpoint	strain	value
O=C(O)C(F)(Cl)P(=O)(O)O	-	DNA polymerase	Herpes simplex virus 1	IC50	-	>100 µM
CC(C)C(=O)NC[C@H]1O[C@@H](n2cc(I)c(=O)[nH]c2=O)C[C@@H]1OC(=O)C(C)C	-	Thymidine kinase	Herpes simplex virus 1	IC50	-	0.36 µM